Target: GST-SlCaM6 (tomato (Solanum lycopersicum))
Assay: other fluorescence titration
Conditions: both partners purified

B1: peptide 1 (last 19 aa at the C-terminus of SFI5) (peptide)
peptide: STWKIFKIISRLKKLKLKR
B1 showed an IC50 of 1000 nM.

From article PMC6099356 (The New Phytologist, 2018)
